Compound potency records, mixed from different reports. Data source: NIAID ChemDB in PubChem.

Common to all: whole-cell or culture tests

ECn: concentration that inhibits the pathogen or its effect by n%.

| structure | strain | changes | cell line | tested at | method | measure | species | value |
|---|---|---|---|---|---|---|---|---|
| C#C[C@]1(CO)O[C@@H](n2cnc3c(N)nc(F)nc32)CC1O | ROD9 | Q151M M184V | MAGIC-5A | - | β-galactosidase / absorbance | EC50 | HIV-2 | 0.0059 µM |
| Nc1ncnc2c1ncn2C[C@@H](CO)OCP(=O)(O)O | - | - | Primary duck hepatocytes | - | antigen | EC50 | Duck hepatitis B virus | 0.41 µg/mL |
| C#CC[C@@H](C(=O)N[C@H](/C=C/C(=O)OCC)C[C@@H]1CCNC1=O)n1cccc(NC(=O)c2cc(C)on2)c1=O | Serotype 49 | - | H1-HELA | 0.057 µM | cytopathic effect / XTT | inhibition | Rhinovirus | 90% |
| C[C@H]1COc2c(N3CCN(C)CC3)c(F)cc3c(=O)c(C(=O)O)cn1c23 | 25 strains (methicillin-susceptible) | - | - | - | - | MIC90 | Staphylococcus aureus | 0.5 µg/mL |
| C[C@@H]1[C@H](O)[C@@H](C)/C=C/C=C/CC/C=C/C=C/C=C/C=C/C(O[C@H]2O[C@H](C)[C@@H](O)[C@H](N)[C@@H]2O)CC2O[C@](O)(CC(O)C(O)CCC(O)CC(O)CC(O)CC(=O)O[C@H]1C)CC(O)C2C(=O)O | ATCC 40147 | - | - | - | broth dilution | MFC100 | Candida krusei | 64 µg/mL |
| NC(=O)c1csc([C@@H]2O[C@H](CO)[C@@H](O)[C@H]2O)n1 | TYPE 3/ABNEY | - | HeLa | - | cytopathic effect | EC50 | Reovirus | 3 µg/mL |
| N[C@@H]1CN(c2c(F)cc3c(=O)c(C(=O)O)cn([C@@H]4C[C@@H]4F)c3c2Cl)CC12CC2 | 25 strains (methicillin-susceptible) | - | - | - | - | MIC50 | Staphylococcus aureus | 0.03 µg/mL |
| Nc1nc2c(ncn2COCCO)c(=O)[nH]1 | - | - | Primary duck hepatocytes | - | antigen | EC50 | Duck hepatitis B virus | >50 µg/mL |
| C=CCc1ccc(O)c(-c2ccc(O)c(CC=C)c2)c1 | YL 358 | - | - | - | broth dilution | MIC | Candida albicans | 64 µg/mL |
| O=S(=O)(F)Cc1ccccc1 | - | - | - | 1000 µM | - | inhibition | Cryptosporidium parvum | 31.1% |
| Nc1ncnc2c1ncn2CCOCP(=O)(O)O | PFA-resistant-1 | - | HeLa | - | virus yield | EC90 | Herpes simplex virus 1 | 520 µM |
| CN(C)c1ccc(O)c2c1C[C@H]1C[C@H]3[C@H](N(C)C)C(=O)C(C(N)=O)=C(O)[C@@]3(O)C(=O)C1=C2O | 24 strains (ofloxacin-susceptible) | - | - | - | - | MIC90 | Staphylococcus aureus | 8 µg/mL |
| Cc1cn([C@H]2C[C@H](N=[N+]=[N-])[C@@H](CO)O2)c(=O)[nH]c1=O | LAV-2 | - | CEM | - | virus yield | EC50 | HIV-2 | <0.1 µM |
| NC1CCN(c2nc3c(cc2F)c(=O)c(C(=O)O)cn3-c2ccc(F)cc2F)C1 | 25 strains (methicillin-susceptible) | - | - | - | - | MIC50 | Staphylococcus aureus | 0.06 µg/mL |
| Nc1ncnc2c1ncn2C[C@H](O)CO | - | - | P3HR-1 | 100 µM | - | inhibition | Epstein-Barr virus | 4% |
| NC(=O)c1ncn([C@@H]2O[C@H](CO)[C@@H](O)[C@H]2O)n1 | Sicilian | - | VERO | - | cytopathic effect | EC50 | Sandfly fever virus | 21.7 µg/mL |
| Nc1ncn([C@@H]2O[C@H](CO)[C@@H](O)[C@H]2O)c(=O)n1 | - | - | Primary duck hepatocytes | - | antigen | EC50 | Duck hepatitis B virus | 30 µg/mL |
| CC1(C)[C@@H](O[C@H]2O[C@H](C(=O)O)[C@@H](O)[C@H](O)[C@H]2O[C@@H]2O[C@H](C(=O)O)[C@@H](O)[C@H](O)[C@H]2O)CC[C@]2(C)[C@H]3C(=O)C=C4[C@@H]5C[C@@](C)(C(=O)O)CC[C@]5(C)CC[C@@]4(C)[C@]3(C)CC[C@@H]12 | Sicilian | - | VERO | - | cytopathic effect | EC50 | Sandfly fever virus | 215 µg/mL |
| N#CC[C@H](C1CCCC1)n1cc(-c2ncnc3[nH]ccc23)cn1 | - | - | Macrophage | - | p24 / ELISA | EC50 | SHIV | 0.4 µM |
| O=C1C(=O)c2ccccc2C(O)=C1C1CCC(c2ccc(Cl)cc2)CC1 | Pb1052 c11 | - | HepG2 | - | luciferase | EC50 | Plasmodium berghei | 0.00142 µM |
| Nc1ncnc2c1ncn2CCOCP(=O)(O)O | - | - | P3HR-1 | 1 µM | - | inhibition | Epstein-Barr virus | 4% |
| Cc1cn([C@H]2C[C@H](N=[N+]=[N-])[C@@H](CO)O2)c(=O)[nH]c1=O | - | - | PBMC | - | p24 / ELISA | EC90 | SHIV | 0.03 µM |
| O=c1[nH]cnc2c1ncn2[C@H]1CC[C@@H](CO)O1 | 2298 | - | PBMC | - | ELISA | EC50 | HIV-2 | 6.14 µM |
| CN(C/C=C/C#CC(C)(C)C)Cc1cccc2ccccc12 | 60 isolates | - | - | - | - | MIC50 | Aspergillus fumigatus | >16 µg/mL |
| COC(=O)[C@H](C)NP(=O)(OC[C@H]1C/C1=C/n1cnc2c(N)nc(N)nc21)Oc1ccccc1 | - | - | MEF | - | plaque count | EC50 | Mouse cytomegalovirus | 3.2 µM |
| Nc1nc(N)c2ncn(CCOCP(=O)(O)O)c2n1 | - | - | Primary duck hepatocytes | - | antigen | EC50 | Duck hepatitis B virus | 0.8 µg/mL |
| COC(=O)Nc1nc2ccccc2[nH]1 | IU4 | - | - | - | - | EC50 | Cryptococcus neoformans | 2 µg/mL |
| CC(C)=CCN1c2cc(Cl)cc3[nH]c(=S)n(c23)C[C@@H]1C | - | RT-L74V L100I | MT-4 | - | - | EC95 | HIV-1 | 0.4 µM |
| O=Nc1ccc2ccccc2c1N=Nc1ccccc1C(=O)O | - | - | VERO | - | cytopathic effect | EC50 | Tacaribe virus | 26.2 µM |
| CC(C)CN(C[C@@H](O)[C@H](Cc1ccccc1)NC(=O)[C@H](CC(N)=O)NC(=O)c1ccc2ccccc2n1)C(=O)NC(C)(C)C | NL4-3 | PR-L10R L63P V82T | MT-4 | - | p24 | EC95 | HIV-1 | 0.4 µM |
| NC1CCN(c2c(F)cc3c(=O)c(C(=O)O)cn(C4CC4)c3c2Cl)C1 | 10 strains | - | - | - | - | MIC90 | Enterococcus faecium | 0.5 µg/mL |
| C[C@H](Cc1ccc(O)c(O)c1)[C@@H](C)Cc1ccc(O)c(O)c1 | CCC 131-2000 | - | - | - | broth dilution | MIC80 | Candida lusitaniae | 500 µg/mL |
| CO[C@@H]1[C@@H](O[C@@H]2O[C@H](C)[C@@H](O[C@H]3C[C@@](C)(O)[C@@H](O)[C@H](C)O3)[C@H](N(C)C)[C@H]2O)[C@@H](CC=O)C[C@@H](C)[C@@H](O[C@H]2CC[C@H](N(C)C)[C@H](C)O2)/C=C/C=C/C[C@@H](C)OC(=O)C[C@H]1O | - | - | - | 3 µg/mL | - | inhibition | Toxoplasma gondii | 70% |
| CC[C@H]1OC(=O)[C@H](C)[C@@H](O[C@H]2C[C@@](C)(OC)[C@@H](O)[C@H](C)O2)[C@H](C)[C@@H](O[C@@H]2O[C@H](C)C[C@H](N(C)C)[C@H]2O)[C@](C)(OC)C[C@@H](C)C(=O)[C@H](C)[C@@H](O)[C@]1(C)O | X19 | - | - | - | broth dilution | MIC | Mycobacterium massiliense | 0.125 µg/mL |
| S=c1nc[nH]c2c1ncn2C1CCCO1 | TYPE 2 | - | LLC-MK2 | 10 µM | plaque count | inhibition | Dengue virus | 29% |
| NC(=O)c1ncn([C@H]2C=C[C@@H](CO)O2)n1 | - | - | - | - | plaque count | EC50 | Sandfly fever virus | 5 µg/mL |
| CCO/N=C/c1ccc(OCCC2CCN(c3ccc(C)nn3)CC2)cc1 | 1505 (ICAM-1 receptor group 48) | - | KB | - | neutral red | EC50 | Rhinovirus | 0.158 µM |
| CC(C)(C)NC(=O)[C@@H]1C[C@@H]2CCCC[C@@H]2CN1C[C@@H](O)[C@H](Cc1ccccc1)NC(=O)[C@H](CC(N)=O)NC(=O)c1ccc2ccccc2n1 | NL4-3 | PR-L10R M46I | MT-4 | - | p24 | EC95 | HIV-1 | 0.025 µM |
| CC(=O)Nc1cc2c(O)c(N=Nc3ccc(S(N)(=O)=O)cc3)c(S(=O)(=O)O)cc2cc1S(=O)(=O)O | - | - | VERO | - | cytopathic effect | EC50 | Tacaribe virus | >100 µM |
| Cc1onc(-c2ccccc2)c1C(=O)N[C@@H]1C(=O)N2[C@@H]1SC(C)(C)[C@@H]2C(=O)O | 25 strains (methicillin-susceptible) | - | - | - | - | MIC90 | Staphylococcus aureus | 1 µg/mL |
| COc1cc2[nH]c(C)c(-c3ccccc3C)c(=O)c2cc1Cl | Pb1052 c11 | - | HepG2 | - | luciferase | EC50 | Plasmodium berghei | 0.00282 µM |
| Nc1ncnc2c1ncn2C[C@@H](CO)OCP(=O)(O)O | PMEA-resistant-1 | - | HeLa | - | virus yield | EC90 | Herpes simplex virus 1 | 14 µM |
| COC(=O)Nc1nc2ccc(Sc3ccccc3)cc2[nH]1 | IU4 | - | - | - | - | EC50 | Cryptococcus neoformans | 0.019 µg/mL |
| N=C(N)c1ncn([C@@H]2O[C@H](CO)[C@@H](O)[C@H]2O)n1 | A/New Caledonia/20/99 | - | MDCK | - | neutral red | EC50 | Influenza A virus (H1N1) | 18 µg/mL |
| N=C(N)CCNC(=O)C1CCC(N)=N1 | TYPE 3 | - | - | - | - | MIC | Parainfluenza virus | 6 µg/mL |
| CCCCNC(=O)n1c(NC(=O)OC)nc2ccccc21 | IU4 | - | - | - | - | EC90 | Cryptococcus neoformans | 3.7 µg/mL |
| COC(=O)[C@H](C)NP(=O)(OC[C@H]1C/C1=C/n1cnc2c(=O)[nH]c(N)nc21)Oc1ccccc1 | - | - | MEF | - | plaque count | EC50 | Mouse cytomegalovirus | 3.3 µM |

Again, the opening 5 rows:

structure | strain | changes | cell line | tested at | method | measure | species | value
C#C[C@]1(CO)O[C@@H](n2cnc3c(N)nc(F)nc32)CC1O | ROD9 | Q151M M184V | MAGIC-5A | - | β-galactosidase / absorbance | EC50 | HIV-2 | 0.0059 µM
Nc1ncnc2c1ncn2C[C@@H](CO)OCP(=O)(O)O | - | - | Primary duck hepatocytes | - | antigen | EC50 | Duck hepatitis B virus | 0.41 µg/mL
C#CC[C@@H](C(=O)N[C@H](/C=C/C(=O)OCC)C[C@@H]1CCNC1=O)n1cccc(NC(=O)c2cc(C)on2)c1=O | Serotype 49 | - | H1-HELA | 0.057 µM | cytopathic effect / XTT | inhibition | Rhinovirus | 90%
C[C@H]1COc2c(N3CCN(C)CC3)c(F)cc3c(=O)c(C(=O)O)cn1c23 | 25 strains (methicillin-susceptible) | - | - | - | - | MIC90 | Staphylococcus aureus | 0.5 µg/mL
C[C@@H]1[C@H](O)[C@@H](C)/C=C/C=C/CC/C=C/C=C/C=C/C=C/C(O[C@H]2O[C@H](C)[C@@H](O)[C@H](N)[C@@H]2O)CC2O[C@](O)(CC(O)C(O)CCC(O)CC(O)CC(O)CC(=O)O[C@H]1C)CC(O)C2C(=O)O | ATCC 40147 | - | - | - | broth dilution | MFC100 | Candida krusei | 64 µg/mL

Percent inhibition refers to the dose given; in toxicity tests it is the harm to the cells. Neighbouring rows are from separate reports. MIC50, MIC90 and the like: level of inhibition, or share of isolates inhibited. An empty or dashed field is not shown.